From article PMC10852988

Assays:
Assay in all cases: SPR
Details in all cases: domain or fragment
S309 = biological target: S309
CR3022 = biological target: CR3022
P2B-2F6 = biological target: P2B-2F6
CB6 = biological target: CB6

Substance: HEK293 RBD (recombinant SARS-CoV-2 spike receptor-binding domain, Arg319–Lys537 with His Tag) (from UniProt P0DTC2 319-537)
- Kd (S309): 0.00011 nM
- Kd (CR3022): 9.62 nM
- Kd (P2B-2F6): 36.1 nM
- Kd (CB6): 24 nM
